Among the data in publication PMC8072286, “Gcn5-Related N-Acetyltransferases (GNATs) With a Catalytic Serine Residue Can Play Ping-Pong Too” (Frontiers in Molecular Biosciences, 2021) are Km, kcat and kcat/Km values, retold here.

In this data set the test system is CCCCCCCC(=O)N(C)CCN. The data set can be described thus: purified protein. The settings on record: AcCoA held at 0.5 mM; NANMO 0-2.5 mM, used as hydrochloride.

One may read the Km as the substrate concentration at which the rate is half of its maximum. The term kcat denotes the number of substrate molecules converted per active site and unit of time at saturation. In general, kcat/Km refers to the second-order rate constant that governs catalysis at low substrate concentration. As for “PA3944 (Pseudomonas aeruginosa PAO1; E102A)”, the Km stood at 101 ± 13 µM, the kcat was determined as 0.15 s⁻¹ and the kcat/Km came out at 1500 M⁻¹ s⁻¹.
